Measurements from paper PMC6882465, “Towards discovery of new leishmanicidal scaffolds able to inhibit Leishmania GSK-3” (Journal of Enzyme Inhibition and Medicinal Chemistry, 2019).

What follows are molecules tested on peritoneal murine macrophages (PMM) (assay: Cytotoxicity on peritoneal murine macrophages (MTT)). Conditions: Table S1.
Assay type: cell-based, Balb/c mice

Row | Structure (SMILES) | SI: Specificity Index (EC50 PMM/EC50 amas. ax)
1 | O=C(CCl)c1ccc(Br)s1 [Compound 6] | 4.0
2 | O=C(CCl)c1ccc(Cl)cc1 [Compound 7] | 14.6
3 | O=C(CCl)c1cc(Cl)sc1Cl [Compound 8] | 1.5
4 | O=C(CCl)c1cc(Br)c(Br)s1 [Compound 10] | 6.6
5 | CC(=O)C1=C(c2c[nH]c3ccccc23)C(=O)NC1=O [Compound 16] | > 20.0
6 | COc1ccc(-n2cnc3cc(C(=O)CBr)ccc32)cc1 [Compound 17] | > 5.6
7 | COc1ccc(CNC(=O)Nc2nc(C)c(C(=O)CBr)s2)cc1 [Compound 19] | 2.2
